Like-named read-outs stand apart in the source and are kept apart here.
Assays:
[1] = for Generated active drug concentration: Table VI
[2] = for Active drug level: tumour bearing, prodrug 160 mg kg-1 i.v., Table VIII
[3] = ref Bagshawe et al., 1988; cited from earlier work
[4] = Stability in phosphate buffered saline (pH 7.4) at 37C, HPLC
[5] = for Active drug concentration: active drug 11 mg kg-1 i.p., Table II
[6] = plasma, conjugate then prodrug 16 mg kg-1 i.v. 72 h later, Table V
[7] = plasma, 41 µmol kg-1 i.p., Table I

O=C(O)c1ccc(N(CCCl)CCCl)cc1
Generated active drug concentration ([1]; kidney, 0.5 h): 3.75 µg/g | Generated active drug concentration ([1]; kidney, 1.0 h): 3.17 µg/g | Generated active drug concentration ([1]; kidney, 2.0 h): 1.85 µg/g | Generated active drug concentration ([1]; kidney, 4.0 h): 1.15 µg/g | Generated active drug concentration ([1]; liver, 0.5 h): 5.85 µg/g | Generated active drug concentration ([1]; liver, 1.0 h): 3.83 µg/g | Generated active drug concentration ([1]; liver, 2.0 h): 2.22 µg/g | Generated active drug concentration ([1]; liver, 4.0 h): 1.35 µg/g | Generated active drug concentration ([1]; lung, 0.5 h): 2.65 µg/g | Generated active drug concentration ([1]; lung, 1.0 h): 1.32 µg/g | Generated active drug concentration ([1]; lung, 2.0 h): 0.80 µg/g | Generated active drug concentration ([1]; lung, 4.0 h): 0.68 µg/g | Generated active drug concentration ([1]; plasma, 0.5 h): 6.23 µg/mL | Generated active drug concentration ([1]; plasma, 1.0 h): 3.35 µg/mL | Generated active drug concentration ([1]; plasma, 2.0 h): 1.94 µg/mL | Generated active drug concentration ([1]; plasma, 4.0 h): 1.18 µg/mL | AUC, area under plasma concentration versus time curve from zero to infinity ([1]; plasma, W14-F(ab')2:CPG2 1,000 U kg-1 i.v., prodrug 16 mg kg-1 i.v. 72 h later, Table V): 20500 ng·h/mL | Cl, total body clearance [1, 6]: 0.46 mL/min | Vd, apparent volume of distribution [1, 6]: 0.11 L | Generated active drug concentration ([1]; tumour, 0.5 h): 1.20 µg/g | Generated active drug concentration ([1]; tumour, 1.0 h): 0.84 µg/g | Generated active drug concentration ([1]; tumour, 2.0 h): 0.79 µg/g | Generated active drug concentration ([1]; tumour, 4.0 h): 0.54 µg/g | Active drug level ([2]; liver, 5 min): 24.5 µg/g | Active drug level ([2]; liver, 15 min): 22.9 µg/g | Active drug level ([2]; liver, 30 min): 21.7 µg/g | Active drug level ([2]; lung, 5 min): 28.3 µg/g | Active drug level ([2]; lung, 15 min): 17.6 µg/g | Active drug level ([2]; lung, 30 min): 14.4 µg/g | Active drug level ([2]; plasma, 5 min): 109.0 µg/mL | Active drug level ([2]; plasma, 15 min): 50.1 µg/mL | Active drug level ([2]; plasma, 30 min): 32.8 µg/mL | Difference between active drug levels in tumour bearing and non-tumour bearing mice ([2]; plasma, liver and lung): no significant difference | Active drug level ([2]; tumour, 5 min): 11.0 µg/g | Active drug level ([2]; tumour, 15 min): 10.3 µg/g | Active drug level ([2]; tumour, 30 min): 11.5 µg/g | Plasma peak level of active drug generated from prodrug in the presence of the conjugate [3]: 6.8 µg/mL | Stability in organic solvents and aqueous solutions [4]: stable | Active drug concentration ([5]; kidney, 0.5 h): 4.91 µg/g | Active drug concentration ([5]; kidney, 1.0 h): 2.60 µg/g | Active drug concentration ([5]; kidney, 2.0 h): 1.86 µg/g | Active drug level after prodrug alone ([5]; kidney, 2 h, prodrug alone 16 mg kg-1 i.p., Table III): 0.29 µg/g | Active drug level after prodrug alone ([5]; kidney, 4 h, prodrug alone 16 mg kg-1 i.p., Table III): 1.25 µg/g | Active drug concentration ([5]; liver, 0.5 h): 8.38 µg/g | Active drug concentration ([5]; liver, 1.0 h): 3.76 µg/g | Active drug concentration ([5]; liver, 2.0 h): 2.97 µg/g | Active drug level after prodrug alone ([5]; liver, 2 h, prodrug alone 16 mg kg-1 i.p., Table III): 0.52 µg/g | Active drug concentration ([5]; lung, 0.5 h): 2.63 µg/g | Active drug concentration ([5]; lung, 1.0 h): 1.28 µg/g | Active drug concentration ([5]; lung, 2.0 h): 0.93 µg/g | Active drug level after prodrug alone ([5]; lung, 2 h, prodrug alone 16 mg kg-1 i.p., Table III): 0.21 µg/g | Active drug level after prodrug alone ([5]; lung, 4 h, prodrug alone 16 mg kg-1 i.p., Table III): 0.81 µg/g | Active drug concentration ([5]; plasma, 0.5 h): 5.63 µg/mL | Active drug concentration ([5]; plasma, 1.0 h): 3.33 µg/mL | Active drug concentration ([5]; plasma, 2.0 h): 2.31 µg/mL | Active drug level after prodrug alone ([5]; plasma, 2 h, prodrug alone 16 mg kg-1 i.p., Table III): 0.30 µg/mL | Cl, total body clearance [5, 7]: 0.32 mL/min | Vd, apparent volume of distribution [5, 7]: 0.05 L | AUC, area under plasma concentration versus time curve from zero to infinity ([5]; plasma, prodrug 16 mg kg-1 or active drug 11 mg kg-1 (41 µmol kg-1) i.p., Table I): 18200 ng·h/mL | Time after injection of prodrug until active drug measurable ([5]; prodrug alone 16 mg kg-1 i.p., no conjugate, at 2 h not all mice had detectable levels): at least 2 h | Active drug concentration ([5]; tumour, 0.5 h): 1.43 µg/g | Active drug concentration ([5]; tumour, 1.0 h): 1.03 µg/g | Active drug concentration ([5]; tumour, 2.0 h): 1.09 µg/g | Active drug level after prodrug alone ([5]; tumour, 2 h, prodrug alone 16 mg kg-1 i.p.): not detectable | Active drug level after prodrug alone ([5]; tumour, 4 h, prodrug alone 16 mg kg-1 i.p., Table III): 0.20 µg/g
